Tests used:
[1] = target: T1, DENV-2 New Guinea B (NGB) parent virus (dengue type 2 virus); assay: cell-based or functional assay
[2] = target: T1, DENV-2 New Guinea B (NGB) parent virus

B1: chimpanzee Fab 1A5 (Fab, V domains shown)
VH: EVQLLESGGGLVQPGGSRRLSCAASGFTISDNVMHWVRQAPGKGLEWVALIYSADTTHYADSVKGRFTISRDNSKNTLYLQMDSLRPEDTAVYYCAREYCTGDTCFAHFDYWGQGTLVSVSS
VL: ELQMTQSPSSVSASVGDTVTIACRASQSITNYLSWYQQKPGKAPKLLIYHASTLQSGIPSRFSGSGSGTDFTLTISSLQPDDFATYYCHYGYGTHTFGQGTKLEIKR
With B1 the PRNT50 titer [1] was 0.74 µg/mL and the Kd [2] was 0.47 nM.

From patent publication US20070134256A1 (US Dept. of Health and Human Services, published 2007)
